Experimental data reported in the supplement of paper PMC9931576.
Human monoclonal antibodies against the spike receptor-binding domain (heavy:light variable regions). IC50 against pseudoviruses bearing the spike of naturally observed variants; lower = stronger; >10 µg/ml means not reached at the top dose. No active / inactive call. The stated detection limit is 0.0005 µg/ml; values near or below 0.001 µg/ml lie at the floor of the assay.

B1: BD55-5463 (protein)
chain 1: QVQLVQSGSELKKPGASVKVSCKASGYTFTTYSVKWVRQAPGQGLEWMGWINTNTGNPTYAQGFTGRFVFSLDTSVNTAYLLISSLRAEDTAVYYCARVYCNDYSCYDVDYWGQGTLVTVSS
chain 2: QSVLTQPPSASGTPGQRVTISCSGSISNIGSNFVYWYQQLPGTAPKLLIYRDDHRPSGVPDRISGSKSGTSASLAVSGLRSEDEADYYCAAWDDTVSGRLFGGGTRLTVL
B2: BD55-5467 (protein)
chain 1: EVKLVESGGGLVQPGRSLRLSCSASGFTFDDYTMHWVRQAPGKGLEWVAGINWNSGSIGYADSVKGRFTISRDNAKNSLYLQVNSLRVEDTALYYCAKVVSAAAATLDDDAFDIWGQGTMVTVSS
chain 2: SSELTQDPAVSVALGQTVRITCQGDSLRSYYASWYQQKPGQAPVLLIYGKNNRPSGIPDRFSGSSSGNTASLTITGAQAEDEADYYCNSRDTSGNHLRVFGGGTKLTVL
B3: BD55-5468 (protein)
chain 1: EVQLVESGGGLVKPGGSLRLSCAASGFTFSSYTMNWVRQAPGKGLEWVSSISGSSSFIFYADSLKGRFSISRDNAKNSLYLQMSSLRAEDTAIYYCARNYEILTAYSDAEYFQHWGQGTLVTVSS
chain 2: EIVLTQSPATLSLSPGERATLSCRASQSVSSSLAWYQQKPGQAPRLLIYDASNRATGIPPRFSGSGSGTDFTLTISSLEPEDFAVYYCQQRSNWPPYTFGQGTKVEIK
B4: BD55-5474 (protein)
chain 1: QLQLQESGPGLVKPSETLSLTCSVSGASIINDHYSWAWVRQPPGKGLEWIGNIYYNGKTYYNPSLKSRVTISGDTPRNRLSLKLSSVTAADTAVYYCARRATGYSGYDIFGNDAFDSWGQGTLVSVSS
chain 2: QSVLTQPPSVSGAPGQRVTISCTGSSSNIGAGYDVHWYQQVPGTAPKLLIYDNNNRPSGVPDRFSGSKSGTSASLAITGLQAEDEADYYCQSYDSSLSGSSVFGTGTKVTVL
B5: BD55-5483 (protein)
chain 1: QVQLVQSGAEVKKPGSSVKVSCKASGDTFRSFALSWVRQAPGQGLEWMGVINPVFGAAHYAQKFQGRVTFIPDERTSTAYMVLSSLRSADTAVYYCARLFPSGNPDRPEDGVDVWGQGTMVTVSS
chain 2: DIQMTQSPSSLSASVGDRVTISCQASQGISKYLNWYQQKPGKAPKLLIYYASNLETGVPSRFSGSGFGTDFYLTISSLQPEDVATYYCQRFDDLPSYTFGQGTKLEIK
B6: BD55-5505 (protein)
chain 1: QVQLVESGGGVVQPGRSLRLSCATSGFTFSSYGMHWVRQAPGKGLEWVAVILSDGNKEYYADSVKGRFTISRDNSKNTMYLQMNSLRAEDTAVYYCVREEFLYYYDINGAWPHFDYWGQGTLVTVSS
chain 2: QSVLTQPPSASETPGQRVTISCSGSNSNIGPNYVYWYQQLPGTAPKLLIYNNNQRPSGVPDRFSGSKSGTSASLAISGLRSEDEADYYCAAWDDSLSGVVFGGGTKLTVL
B7: BD55-5526 (protein)
chain 1: EVQLVESGGVVVQPGGSLRLSCAASGFTFNDYAMHWVRQPPGKGLEWVSLISWDGGSTYYGDSVKGRFTISRDNSKNSLYLQMKSLRAEDTALYYCAKDDDYYGSGSYGGLDVWGQGTTVTVSS
chain 2: DIQMTQSPSAMSASIGDRVTITCRASQDINYYLAWFQQKPGKVPKRLIYGASSLQSGVPSRFSGSGSGTEFTLTISSLQPEDFATYYCLQHSSYPWTFGQGTKVEIK
B8: BD55-5530 (protein)
chain 1: QVQLVQSGSELKKPGASVRVSCKASGYTFTTYSIKWVRQAPGQGLEWMGWINTNTGTPTSAQGLTGRFVFSVDTSVSTAYLQISSLKTEDTAVYYCARVFCSGGSCYDVDLWGQGTLVTVSS
chain 2: QSVLTQPPSASGTPGQRVIISCSGSISNIGSNFVYWYQQLPGTAPKVLIYRNIHRPSGVPDRFSGSKSGTSASLAISGLRSEDEADYYCAAWDDGLSGRLFGGGTKLTVL
B9: BD55-1070 (protein)
chain 1: EVQLVESGGALVQPGGSLKLSCAASGFTFTEEDMHWVRQTTGKGLEWVSGAGTSGDTYYLDSVKGRFTISREDAKNSLSLQMSSLRAEDTAIYYCVRGDSSGLYYFFDLWGHGTLVTVSS
chain 2: DIQMTQSPSSLSASVGDRVTITCRASQTITKYLNWYQVKPGKPPKLLIYAASKLQSGVPSRFSGSGSGTDFTLTIGSLQADDFATYYCQQSYSSPPWTFGPGTKVEIK
B10: BD55-5542 (protein)
chain 1: QVQLVQSGAEVKKPGSSVKVSCKASGGTFTSYAISWVRQAPGQGLEWMGGIIPFFNISNYAQKFQGRVTITADKSTSTAYMELSSLRSEDTAVYYCARERGEGVPAPTVTYWFDPWGQGTLVTVSS
chain 2: DIVMTQTPDSLAVSLGERATINCKSSQSVLYSSNNKNYLSWYQQKPGQPPKVLIYWASIRESGVPDRFSGSGSGTDFTLTISSLQAEDVAVYYCQQYYSNPLTFGGGTKVEIK
B11: BD55-5543 (protein)
chain 1: EVQLLESGGGLVQPGGSLRLSCAASGFTFSNFAMHWVRQAPGKGLEWVSAFSSSSGSHSYYADSVKGRFTISRDNSKNTLYLQMNSLRAEDTAIYYCAKPQNREWFGELFPFDFWGPGTLVTVSS
chain 2: DIVMTQSPDSLAVSLGERATIHCKSSQSLLFTSNNKNYLAWYQHRPGQPPKLLLYWASTRESGVPDRFSGSGSGTDFTLTISSLQAEDVAVYYCQQYYSSLYTFGQGTKLEIK
B12: BD55-5545 (protein)
chain 1: QVQLQQWGAGLLKPSETLSLTCAVSGGSLSGYYWGWIRQSPGKGLQWIGEINHGGTTSYNPSLKSRVTISLDTSKTQFSLTVSSVTAADTAVYYCARIAPRKDRVESGWYWGFDYWGQGTLVTVSS
chain 2: DIEMTQSPDSLAVSLGERATINCKPSQSVSYSSDIKNYLAWYQQKPGQPPKLLIYWASTRESGVPDRFSGSGSGTDFSLTISSLQAEDVAVYYCQQYYSPPITFGQGTRLEIK

These binders were tested against SARS-CoV-2 Omicron BA.1 spike pseudovirus (assay: pseudovirus neutralization IC50; higher = weaker neutralization).
Method: (§1)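 Single-round VSV luciferase pseudovirus mixed with antibody dilutions for 1 h and put on Huh-7 cells for about a day; IC50 from the dose curve.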

Point of comparison: B5, “pseudovirus neutralization IC50” value 0.00647 µg/mL. Against it:
- B1 — higher, > 10 µg/mL
- B2 — higher, > 10 µg/mL
- B3 — higher, > 10 µg/mL
- B4 — higher, > 10 µg/mL
- B6 — higher, > 10 µg/mL
- B7 — higher, > 10 µg/mL
- B8 — higher, > 10 µg/mL
- B9 — higher, > 10 µg/mL
- B10 — higher, > 10 µg/mL
- B11 — higher, > 10 µg/mL
- B12 — 1300-fold higher, 8.16 µg/mL

The binders below were run against SARS-CoV-2 Omicron BA.2 spike pseudovirus in the same assay as above.
Method: as §1

Point of comparison: B12, “pseudovirus neutralization IC50” value 8.32 µg/mL. Against it:
- B1 — higher, > 10 µg/mL
- B2 — higher, > 10 µg/mL
- B3 — higher, > 10 µg/mL
- B4 — higher, > 10 µg/mL
- B5 — 630-fold lower, 0.0133 µg/mL
- B6 — higher, > 10 µg/mL
- B7 — higher, > 10 µg/mL
- B8 — higher, > 10 µg/mL
- B9 — higher, > 10 µg/mL
- B10 — higher, > 10 µg/mL
- B11 — higher, > 10 µg/mL

Each binder was assayed against SARS-CoV-2 Omicron BA.2.75 spike pseudovirus in the same assay as above.
Method: as §1

Point of comparison: B12, “pseudovirus neutralization IC50” value 8.01 µg/mL. Against it:
- B1 — higher, > 10 µg/mL
- B2 — higher, > 10 µg/mL
- B3 — higher, > 10 µg/mL
- B4 — higher, > 10 µg/mL
- B5 — 4400-fold lower, 0.00183 µg/mL
- B6 — higher, > 10 µg/mL
- B7 — higher, > 10 µg/mL
- B8 — higher, > 10 µg/mL
- B9 — higher, > 10 µg/mL
- B10 — higher, > 10 µg/mL
- B11 — higher, > 10 µg/mL

What follows are binders tested against SARS-CoV-2 Omicron BA.5 spike pseudovirus in the same assay as above.
Method: as §1

Point of comparison: B12, “pseudovirus neutralization IC50” value 6.86 µg/mL. Against it:
- B1 — higher, > 10 µg/mL
- B2 — higher, > 10 µg/mL
- B3 — higher, > 10 µg/mL
- B4 — higher, > 10 µg/mL
- B5 — 1700-fold lower, 0.00394 µg/mL
- B6 — higher, > 10 µg/mL
- B7 — higher, > 10 µg/mL
- B8 — higher, > 10 µg/mL
- B9 — higher, > 10 µg/mL
- B10 — higher, > 10 µg/mL
- B11 — higher, > 10 µg/mL

Each binder was assayed against SARS-CoV-2 Omicron BQ.1.1 spike pseudovirus in the same assay as above.
Method: as §1

Point of comparison: B5, “pseudovirus neutralization IC50” value 0.00284 µg/mL. Against it:
- B1 — higher, > 10 µg/mL
- B2 — higher, > 10 µg/mL
- B3 — higher, > 10 µg/mL
- B4 — higher, > 10 µg/mL
- B6 — higher, > 10 µg/mL
- B7 — higher, > 10 µg/mL
- B8 — higher, > 10 µg/mL
- B9 — higher, > 10 µg/mL
- B10 — higher, > 10 µg/mL
- B11 — higher, > 10 µg/mL
- B12 — higher, > 10 µg/mL

Each binder was assayed against SARS-CoV-2 Omicron XBB spike pseudovirus in the same assay as above.
Method: as §1

Point of comparison: B5, “pseudovirus neutralization IC50” value 0.00436 µg/mL. Against it:
- B1 — higher, > 10 µg/mL
- B2 — higher, > 10 µg/mL
- B3 — higher, > 10 µg/mL
- B4 — higher, > 10 µg/mL
- B6 — higher, > 10 µg/mL
- B7 — higher, > 10 µg/mL
- B8 — higher, > 10 µg/mL
- B9 — higher, > 10 µg/mL
- B10 — higher, > 10 µg/mL
- B11 — higher, > 10 µg/mL
- B12 — higher, > 10 µg/mL

These binders were tested against SARS-CoV-2 early D614G spike pseudovirus in the same assay as above.
Method: as §1

Point of comparison: B2, “pseudovirus neutralization IC50” value 2.34 µg/mL. Against it:
- B1 — 60-fold lower, 0.0387 µg/mL
- B3 — 1.6-fold lower, 1.43 µg/mL
- B4 — 5.7-fold lower, 0.413 µg/mL
- B5 — 170-fold lower, 0.0138 µg/mL
- B6 — higher, > 10 µg/mL
- B7 — higher, > 10 µg/mL
- B8 — 1400-fold lower, 0.00172 µg/mL
- B9 — higher, > 10 µg/mL
- B10 — 4.5-fold lower, 0.517 µg/mL
- B11 — 27-fold lower, 0.0852 µg/mL
- B12 — 1.9-fold lower, 1.21 µg/mL
